# From patent US20140234336A1
# Columns and labels:
# [1] = molecular target: HA of H7N2 influenza virus A/turkey/Virginia/02 x PR8 (influenza A virus H7N2 A/turkey/Virginia/02 x PR8); assay: cell-based or functional assay
# [2] = molecular target: HA of H5N1 influenza virus A/Vietnam/1203/04 x PR8 (influenza A virus H5N1 A/Vietnam/1203/04 x PR8); assay: cell-based or functional assay
substance,measurement,setting,value
CT149 antibody,MN titer,[1],10 µg/mL
same,MN titer,[2],2.5 µg/mL
